Record: PubChem BioAssay AID1259414 (Drosophila RNAi Screening Center, 2018)
Aim: 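Fly genes that alter Wolbachia amount inside host cells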 (primary screen). System: Drosophila JW18 cells infected with Wolbachia. Reagent: long dsRNA against Drosophila genes, 0.25 µg dsRNA per well of a 384-well plate. Timing: 5 days. Conditions: cells persistently infected with Wolbachia before knock-down; no added drug. Read-out: 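Automated imaging of bacterial rRNA staining divided by host cell count, reported as plate-normalised robust z-score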. Scale: Wolbachia per cell robust z: higher = more Wolbachia per host cell than the plate typical. Hit rule: 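Hit when robust z is 1.5 or more, or -1.5 or less, in at least two of three replicates; excludes dsRNAs with several or no targets, genes not expressed in JW18 and well A1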.
The deposit covers about 24,000 reagents; shown is a random part of those with a known target gene and a result. Of all reagents, about 1,210 (5%) are marked active. 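Inactive calls also include excluded dsRNAs with several or no targets, genes unexpressed in JW18, and well A1, regardless of score.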 Entries without a mark were called inactive. Names joined by + are all predicted targets of the reagent.

gene | amplicon | Wolbachia per cell robust z, rep 1 | Wolbachia per cell robust z, rep 2 | Wolbachia per cell robust z, rep 3
Ir76a + CG14102 | DRSC38737 | -0.972 | 0.423 | 0.532
CtsK1 (Cathepsin K1) | DRSC08742 | -0.623 | -0.174 | -0.574
Nepl13 (Neprilysin-like 13) | DRSC15632 | -0.491 | 0.97 | -0.125
CG5335 | DRSC06931 | -0.734 | -0.711 | -1.13
CG5335 | DRSC26565 | 0.196 | 0.687 | -0.753
CG5276 | DRSC15759 | -0.0959 | -3.15 | -0.0147
CG5276 | DRSC41444 | -0.547 | 1.06 | 0.632
Osi20 (Osiris 20) | DRSC12568 | -0.47 | -2.59 | -0.24
Osi20 (Osiris 20) | DRSC28630 | -1.24 | 0.627 | 0.411
Remo (Remoulade) | DRSC19710 | -4.18 | -0.337 | 0.316
CG13049 | DRSC09930 | 1.05 | 0.835 | -1.62
CG13049 | DRSC24850 | -0.393 | -0.116 | 0.293
scyl (scylla) | DRSC11392 | 0.762 | -1.03 | 0.658
scyl (scylla) | DRSC27699 | -0.401 | -0.373 | -0.857
Hs6st (Heparan sulfate 6-O-sulfotransferase) | DRSC14348 | -0.2 | -0.742 | 0.0165
Hs6st (Heparan sulfate 6-O-sulfotransferase) | DRSC15182 | 0.0496 | 0.976 | 0.574
Hs6st (Heparan sulfate 6-O-sulfotransferase) | DRSC15581 | -3.92 | 0.714 | -1.28
Hs6st (Heparan sulfate 6-O-sulfotransferase) | DRSC21732 | 0.982 | 0.0741 | 0.322
Ir7g (Ionotropic receptor 7g) | DRSC18008 | 0.306 | 0.335 | 0.108
Ir7g (Ionotropic receptor 7g) | DRSC28922 | 1.46 | 0.303 | 0.185
Anp (Andropin) | DRSC14112 | 0.255 | -3.54 | -0.341
CG33340 | DRSC14615 | -0.953 | 0.88 | 0.723
CG33340 | DRSC26638 | -5.38 | -3.5 | -3.36
Erasp (Endoplasmic reticulum stress-associated serine protease) | DRSC07111 | -0.787 | 0.436 | 0.9
scaRNA:MeU5-C46 (small Cajal body-specific RNA : MeU5-C46) | DRSC36572 | -3.55 | 0.669 | 1.74
Cyp305a1 (Cytochrome P450 305a1) | DRSC11126 | 0.0771 | -0.555 | -0.538
Cpr64Aa (Cuticular protein 64Aa) | DRSC08460 | 0.852 | 1.18 | 1.17
Cpr64Aa (Cuticular protein 64Aa) | DRSC23801 | 1.81 | 0.416 | 2.34
ash1 (absent, small, or homeotic discs 1) | DRSC11325 | 0.717 (active) | 3.4 | 3.44
Rad51D (Rad51 recombinase D) | DRSC06840 | 0.187 | -0.609 | -0.0718
RPA2 (Replication protein A2) | DRSC03184 | -3.19 | -0.596 | 0.564
RPA2 (Replication protein A2) | DRSC29750 | 0.148 | -0.45 | 1.28
jtb (jetboil) | DRSC06868 | -0.251 | -0.476 | -0.145
CG4935 | DRSC01924 | 0.0225 | 0.575 | 0.982
CG32055 | DRSC10666 | -0.471 | 1.01 | -0.942
CG8635 | DRSC07226 | 1.34 | -1.5 | 0.565
CG8635 | DRSC29143 | 0.492 | -0.477 | 0.959
CG31709 | DRSC01081 | 1.36 | 0.0188 | 0.85
CG31709 | DRSC27731 | -0.803 | 0.502 | -0.151
Strump (Strumpellin) | DRSC09872 | 0.439 | 1.15 | 0.151
CG42674 | DRSC10066 | -0.949 | -1.9 | -1.01
CG42674 | DRSC10067 | 0.0483 | 0.00774 | 0.437
CG42674 | DRSC10811 | 0.195 | -8.34 | 0.473
CG42674 | DRSC25036 | 0.401 | 1.63 | -0.0969
CG42674 | DRSC29701 | -6.17 (active) | 1.17 | -2.48
CG34228 | DRSC38878 | -4.14 | 0.908 | 0.514
Alg13 (Alg13 UDP-N-acetylglucosaminyltransferase subunit) | DRSC14864 | -0.901 | -0.288 | 0.728
Alg13 (Alg13 UDP-N-acetylglucosaminyltransferase subunit) | DRSC28209 | -0.973 | -0.63 | -0.278
CCT7 (Chaperonin containing TCP1 subunit 7) | DRSC16410 | -0.699 (active) | 1.9 | 2.02
Lcp65Ab1 + Lcp65Ab2 | DRSC10343 | -0.0703 | -0.428 | 0.38
Lcp65Ab1 + Lcp65Ab2 | DRSC29739 | 0.473 | 0.408 | -6.58
nudC | DRSC11096 | 0.968 | -0.521 | 0.354
nudC | DRSC11097 | 0.649 | -0.764 | -0.857
CaMKII (Calcium/calmodulin-dependent protein kinase II) | DRSC17214 | -0.248 | -0.585 | 0.208
CaMKII (Calcium/calmodulin-dependent protein kinase II) | DRSC40726 | -0.695 | 0.646 | 0.477
Ggamma30A (G protein gamma subunit 30A) | DRSC02715 | 0.156 | 0.367 | 0.18
Ggamma30A (G protein gamma subunit 30A) | DRSC03331 | -3.41 | -0.853 | -0.71
CG10339 | DRSC04065 | -0.823 | 0.734 | -1.7
Osbp (Oxysterol binding protein) | DRSC16779 | -4.15 | -0.212 | 1.57
cas (castor) | DRSC12373 | -1.73 | -1.36 | -0.461
cas (castor) | DRSC24858 | -0.57 | -0.032 | -1.3
cas (castor) | DRSC38957 | -0.254 | 0.42 | 1.04
CG14020 | DRSC02350 | 0.156 | 1.06 | 0.334
CG30203 | DRSC06690 | 0.975 | 0.41 | 0.342
Ir25a (Ionotropic receptor 25a) | DRSC00462 | -0.119 | 0.255 | 1.02
Ir25a (Ionotropic receptor 25a) | DRSC26910 | -6.75 | -0.631 | -1.23
MICAL-like | DRSC09829 | -0.241 | 1.32 | 0.28
snRNA:U1:21D (small nuclear RNA U1 at 21D) | DRSC37901 | 1.54 | -0.272 | 0.314
